Measured values from several laboratories, pooled; numbers as filed in NIAID ChemDB.

Common to all: cytotoxicity tests; cell line: MT-4; measure: CC50

CCn: concentration that lowers growth or viability of the cells by n%. Neighbouring rows are from separate reports. Blank or dashed fields: not listed here.

compound | method | value
COC(=O)c1ccc(NC(=O)COc2nsnc2-c2cccc3ccccc23)cc1 | MTT | 4.9 µM
COc1ccc(-c2nnc(-c3ccc(N)cc3)o2)cc1 |  | 116 µg/mL
CC(C)CN(C[C@@H](O)[C@H](Cc1ccccc1)NC(=O)OCc1cncs1)S(=O)(=O)c1ccc2nc(N)[nH]c2c1 |  | >100 µM
Nc1ncnc2c1ncn2O[C@@H]1CS[C@@H](CO)O1 |  | >100 µg/mL
C=C(C)[C@@H]1CC[C@]2(C(=O)NCCCCCNC(C)=O)CC[C@]3(C)[C@H](CC[C@@H]4[C@@]5(C)CC[C@H](OC(=O)CC(C)(C)C(=O)O)C(C)(C)[C@@H]5CC[C@]43C)[C@@H]12 |  | 9 µM
Fc1cccc(Cn2cc(COc3nsnc3-c3cccc4ccccc34)nn2)c1 | MTT | 67 µM
CC(C)CN(C[C@@H](O)[C@H](Cc1ccccc1)NC(=O)OC(C)(C)C)S(=O)(=O)c1ccc2ncn(CCc3ccccc3)c2c1 |  | 10.2 µM
CCOn1nnc2c1Cc1cccnc1C2 | MTT | >100 µM
C=C(C)[C@@H]1CC[C@]2(C(=O)N[C@@H](CC(C)C)C(=O)O)CC[C@]3(C)[C@H](CC[C@@H]4[C@@]5(C)CC[C@H](OC(=O)CC(C)(C)C(=O)O)C(C)(C)[C@@H]5CC[C@]43C)[C@@H]12 |  | 10 µM
O=C1C=CN([C@@H]2CS[C@@H](CO)O2)S(=O)(=O)N1 |  | >100 µg/mL
CC(C)C([NH3+])C(=O)OC(C)C1C/C=C/CCC(O)C(C)(C)C2CCC(C)C3(O2)O[B-]24OC3C(=O)OC3COC(CCCC(O)C(C)(C)C5CCC(C)C(O5)(O2)C(O4)C(=O)O1)C3 |  | 0.17 µM
CN1CCn2c(nc(C(=O)NCc3ccc(F)cc3S(C)(=O)=O)c(O)c2=O)C1(C)C | microscopy | >1 µM
C=C(C)[C@@H]1CC[C@]2(C(=O)N[C@H](CC(C)C)C(=O)O)CC[C@]3(C)[C@H](CC[C@@H]4[C@@]5(C)CC[C@H](OC(=O)CC(C)(C)C(=O)O)C(C)(C)[C@@H]5CC[C@]43C)[C@@H]12 |  | 8 µM
COc1ccc(Cn2cc(COc3nsnc3-c3cccc4ccccc34)nn2)cc1 | MTT | >116 µM
COc1ccc(Nc2nc3ccccc3n3cccc23)cc1 | MTT | >100 µM
Nc1ncnc2c1ncn2O[C@@H]1CO[C@@H](CO)O1 |  | >100 µg/mL
COc1cc(OC)cc(OCc2nc3cc(C(F)(F)F)ccc3n3cccc23)c1 | MTT | >100 µM
Cn1ccc(CN2CCn3c(nc(C(=O)NCc4ccc(F)cc4)c(O)c3=O)C2(C)C)n1 | microscopy | >1 µM
C/C1=C\C=C\C2(C)C=C(CO)C(C)CC23OC([O-])C(C3=O)C(O)/C=C/C2(C)C=C(C=O)C(C)CC23OC([O-])C(C3=O)C(O)/C(C)=C/C=C/C2C=C(CO)C(C)CC23OC([O-])C(C3=O)C(O)/C=C/C2(C)C=C(C=O)C(C)CC23OC([O-])C(C3=O)C1O |  | >100 µg/mL
CC[C@@H](NS(=O)(=O)c1ccc(Cl)cc1)c1n[nH]c(=S)o1 |  | 122 µg/mL
NC1=NS(=O)(=O)N([C@H]2CS[C@@H](CO)O2)C=C1 |  | >100 µg/mL
CC(C)CN(C[C@@H](O)[C@H](Cc1ccccc1)NC(=O)O[C@H]1CCOC1)S(=O)(=O)c1ccc2nc(NC(=O)NCCN(C)C)[nH]c2c1 |  | >10 µM
Cc1cc(CN2CCn3c(nc(C(=O)NCc4ccc(F)cc4)c(O)c3=O)C2(C)C)no1 | microscopy | >1 µM
C=C(C)[C@@H]1CC[C@]2(C(=O)NCC(=O)N[C@@H](CC(C)C)C(=O)O)CC[C@]3(C)[C@H](CC[C@@H]4[C@@]5(C)CC[C@H](OC(=O)CC(C)(C)C(=O)O)C(C)(C)[C@@H]5CC[C@]43C)[C@@H]12 |  | >10 µM
OC[C@@H]1OC[C@H](On2cnc3c(Cl)ncnc32)O1 |  | >100 µg/mL
NC1=NS(=O)(=O)N([C@@H]2CS[C@@H](CO)O2)C=C1 |  | >100 µg/mL
C=C(C)[C@@H]1CC[C@]2(C(=O)NCCCCCCCC(=O)Nc3ccc(C(=O)O)cc3)CC[C@]3(C)[C@H](CC[C@@H]4[C@@]5(C)CC[C@H](OC(=O)CC(C)(C)C(=O)O)C(C)(C)[C@@H]5CC[C@]43C)[C@@H]12 |  | 9.5 µM
Cc1cn([C@H]2C[C@H](N=[N+]=[N-])[C@@H](CO)O2)c(=O)[nH]c1=O | MTT | >25 µM
NC1=NS(=O)(=O)N(Cc2ccccc2)c2c1ncn2[C@H]1CS[C@@H](CO)O1 |  | >100 µg/mL
CCOCn1c(Cc2ccccc2)c(C(C)C)c(=O)[nH]c1=O | MTT | >100 µM
CCOCn1c(Cc2ccccc2)c(-c2ccccc2)c(=O)[nH]c1=O |  | >100 µM
CC(C)CN(C[C@@H](O)[C@H](Cc1ccccc1)NC(=O)OCc1cccnc1)S(=O)(=O)c1ccc2nc(N)[nH]c2c1 |  | >100 µM
CCOC(=O)c1ccc(Nc2nc3cc(C(F)(F)F)ccc3n3cccc23)cc1 | MTT | >100 µM
CC(Oc1nsnc1-c1cccc2ccccc12)C(=O)Nc1ccccc1Cl | MTT | ≥17 µM
CC(C)CC(NS(=O)(=O)c1ccc(Cl)cc1)c1nnc(NS(=O)(=O)c2ccc(Cl)cc2)s1 | MTT | 59.93 µM
CC(Oc1nsnc1-c1cccc2ccccc12)C(=O)Nc1ccccc1F | MTT | 52 µM
O=C(O)c1ccc(Nc2nc3ccccc3n3cccc23)cc1 | MTT | 100 µM
O=c1[nH]cnc2c1ncn2O[C@@H]1CS[C@@H](CO)O1 |  | >100 µg/mL
CN1CCn2c(nc(C(=O)NCc3ccc(F)cc3)c(O)c2=O)C(N(Cc2ccccc2)C(=O)C(=O)N(C)C)C1 | microscopy | >1 µM
Cc1cn(CCO[C@@H]2O[C@H](CO)[C@@H](N=[N+]=[N-])[C@H]2O)c(=O)[nH]c1=O | MTT | >100 µg/mL
O=c1[nH]cnc2c1ncn2O[C@H]1CO[C@@H](CO)O1 |  | >100 µg/mL
C=C(C)[C@@H]1CC[C@]2(C(=O)NCCCCCCCNC(C)=O)CC[C@]3(C)[C@H](CC[C@@H]4[C@@]5(C)CC[C@H](OC(=O)CC(C)(C)C(=O)O)C(C)(C)[C@@H]5CC[C@]43C)[C@@H]12 |  | 8 µM
CN(C)C(=O)C(=O)N1CCn2c(nc(C(=O)NCc3ccc(F)cc3)c(O)c2=O)C(N(C)C(=O)C(=O)N(C)C)C1 | microscopy | >1 µM
O=C(O)c1ccc(Nc2nc3cc(C(F)(F)F)ccc3n3cccc23)cc1 | MTT | 15 µM
c1cnc2cc3n[nH]nc3cc2c1 | MTT | >100 µM
COC(=O)[C@H]1[C@@H]2C[C@@H](O[C@@H]3O[C@H](C)[C@@H](O)[C@H](N)[C@@H]3O)/C=C/C=C/C=C/C=C/C=C/C=C/C=C/[C@H](C)[C@@H](O)[C@H](C)[C@H](C)OC(=O)C[C@H](O)C[C@H](O)[C@@H](O)CC[C@H](O)C[C@H](O)C[C@](O)(C[C@@H]1O)O2 |  | >20 µg/mL
Cc1cn([C@H]2C[C@H](N=[N+]=[N-])[C@@H](CO)O2)c(=O)[nH]c1=O | MTT | >100 µM
Cc1ccc(NC(=O)COc2nsnc2-c2cccc3ccccc23)c([N+](=O)[O-])c1 | MTT | 29 µM
Cc1cccc(C)c1OCC(=O)N[C@@H](Cc1ccccc1)[C@H](O)CN(CC(C)C)S(=O)(=O)c1ccc2ncn(C)c2c1 |  | 57.5 µM
COc1ccc(S(=O)(=O)Nc2nnc(C(CC(C)C)NS(=O)(=O)c3ccc(C)cc3)s2)cc1 | MTT | 61.05 µM
COC(=O)Nc1nc2ccc(S(=O)(=O)N(CC(C)C)C[C@@H](O)[C@H](Cc3ccccc3)NC(=O)COc3c(C)cc(C#N)cc3C)cc2[nH]1 |  | >100 µM
CCn1c(C)c(C(=O)OC)c(C(=O)OC)c1Cc1ccccc1 |  | 59 µM
Nc1nc(N)c2ncn([C@@H]3O[C@H](CO)[C@H]3CO)c2n1 |  | 130 µg/mL
COC(=O)Nc1nc2ccc(S(=O)(=O)N(CC(C)C)C[C@@H](O)[C@H](Cc3ccccc3)NC(=O)c3ccc(N)cc3C)cc2[nH]1 |  | 79.4 µM
COc1ncnc2c1ncn2O[C@H]1CS[C@@H](CO)O1 |  | >100 µg/mL
CSCC[C@H](NS(=O)(=O)c1ccc(C)cc1)c1n[nH]c(=S)o1 |  | 63 µg/mL
COC(=O)c1ccc(NC(=O)COc2nsnc2-c2cccc3ccccc23)c(Br)c1 | MTT | >100 µM
C=C(C)[C@@H]1CC[C@]2(C(=O)On3nnc4ccccc43)CC[C@]3(C)[C@H](CC[C@@H]4[C@@]5(C)CC[C@H](OC(=O)C(C)(C)CC(=O)O)C(C)(C)[C@@H]5CC[C@]43C)[C@@H]12 |  | 2.5 µM
Cc1ccc(-c2nnc(-c3ccc(N)cc3)o2)cc1 |  | 22 µg/mL
Nc1nc2c(ncn2[C@@H]2O[C@H](CO)[C@H]2CO)c(=O)[nH]1 |  | 210 µg/mL
NC1=NS(=O)(=O)N(Cc2ccccc2)c2c1ncn2[C@@H]1CS[C@@H](CO)O1 |  | >100 µg/mL
Cc1cccc(C)c1OCC(=O)N[C@@H](Cc1ccccc1)[C@H](O)CN(CC(C)C)S(=O)(=O)c1ccc2nc(N)[nH]c2c1 |  | 64.6 µM
COc1ccc(Nc2nc3cc(C(F)(F)F)ccc3n3cccc23)cc1 | MTT | >100 µM

8 of the rows above, restated:

compound,method,value
COC(=O)c1ccc(NC(=O)COc2nsnc2-c2cccc3ccccc23)cc1,MTT,4.9 µM
COC(=O)c1ccc(NC(=O)COc2nsnc2-c2cccc3ccccc23)c(Br)c1,MTT,>100 µM
CSCC[C@H](NS(=O)(=O)c1ccc(C)cc1)c1n[nH]c(=S)o1,,63 µg/mL
Fc1cccc(Cn2cc(COc3nsnc3-c3cccc4ccccc34)nn2)c1,MTT,67 µM
O=C(O)c1ccc(Nc2nc3cc(C(F)(F)F)ccc3n3cccc23)cc1,MTT,15 µM
Cc1cccc(C)c1OCC(=O)N[C@@H](Cc1ccccc1)[C@H](O)CN(CC(C)C)S(=O)(=O)c1ccc2ncn(C)c2c1,,57.5 µM
CN1CCn2c(nc(C(=O)NCc3ccc(F)cc3S(C)(=O)=O)c(O)c2=O)C1(C)C,microscopy,>1 µM
C=C(C)[C@@H]1CC[C@]2(C(=O)N[C@H](CC(C)C)C(=O)O)CC[C@]3(C)[C@H](CC[C@@H]4[C@@]5(C)CC[C@H](OC(=O)CC(C)(C)C(=O)O)C(C)(C)[C@@H]5CC[C@]43C)[C@@H]12,,8 µM